According to patent US20230293565A1, “USE OF WNT/BETA-CATENIN PATHWAY INHIBITORS TO BLOCK REPLICATION OF SARS-COV-2 AND OTHER PATHOGENIC VIRUSES” (THE GOVERNORS OF THE UNIVERSITY OF ALBERTA, priority 2020, published 2023):

System: type I (IFNβ) interferon
Assay type: cell-based, human

| Substance | production of IFN (type I, IFNβ transcripts) in response to viral infection | type I interferon (IFNβ) induction by PPAR gamma agonists (A549, 10 micromolar, Sendai 100 HAU/ml, 16 hours) |
| --- | --- | --- |
| iCRT-14 | significantly increased |  |
| chiglitazar |  | upregulate type I interferon |
